Reference: patent US20260062466A1 (WASHINGTON UNIVERSITY, published 2026)

Key:
Experiment in all cases: cell-based or functional assay
CHIKV-LR 2006 (virus) = CHIKV-LR 2006 (virus) (Chikungunya virus strain LR 2006)
CHIKV-37997 (virus) = CHIKV-37997 (virus) (Chikungunya virus strain 37997, UniProt Q5XXP3 326-748; Q5XXP3 810-1248)
[1] = target: ONNV (O'nyong'nyong virus, MP30) envelope glycoproteins (O'nyong'nyong virus strain MP30)

Binder	FRNT neutralisation, LR 2006 EC50 (CHIKV-LR 2006 (virus))	FRNT neutralisation, 37997 EC50 (CHIKV-37997 (virus))	FRNT neutralisation of ONNV, EC50 [1]
520.F04 (antibody, V domains shown) VH: QVQLVESGGGVVQPGRSLRLSCAASGFTFSSYGMHWVRQAPGKGLEWVAVISYDGSNDYYADSVKGRFTISRDNSKNTLYLQMNSLRAEDTAVYYCAKCVWFGELSPFDYWGQGTLVTVSS VL: DIQMTQSPSSLSASVGDRVTITCRASQGISNYFAWYQQKPGKVPKLLIYAASTLQSGVPSRFSGSGSGTDFTLTISSLQPEDVATYYCQKYNSAPGITFGPGTKVDIK	0.072 µg/mL	0.202 µg/mL	–
506.A05 (antibody, V domains shown) VH: QVQLVESGGGVVQPGRSLRLSCAASGFTFSSYGMHWVRQAPGKGLEWLAVISYDGSNKYYADSVKGRFTISRDNSKTTLFLQMNSLRAEDTAVYYCAKDIQRRLIDYWGQGTLVTVSS VL: DIQMTQSPSSLSASVGDRVTITCQASQDISNFLNWYQQKPRKAPKLLIFDASNLETGVPSRFSGSGSGTDFTFTISSLQPEDIATYYCQQYDNLPLTFGGGTKVEIK	0.236 µg/mL	0.001 µg/mL	–
520.D05 (antibody, V domains shown) VH: QVQLQQWGAGLLKPSETLSLTCAVYGGSFSGYILSWIRQPPGKGLEWIGEINHRGSTSYNPSLKSRVTISLDTSKNHFSLKLSSVTAADTAVYYCAKSPYMDVWGKGTTVTVSS VL: EIVLTQSPGTLSLSPGERATLSCRASQSVSSSYFAWYQQKPGQAPRLLIYGASSRATGIPDRFSGGGSGTDFTLTISRLEPEDFAVYYCQQYVSSPYTFGQGTKLEIK	0.042 µg/mL	0.003 µg/mL	< 0.05 µg/mL
516.A10 (antibody, V domains shown) VH: QVQMVESGGGVVQPGRSLRLSCAASGFTFSSYPIHWVRQVPGKGLEWVAVISYDGSNKYYADSVKGRFTISRDNSKNTLYLQMNSLRPEDTAVYFCARGRGDFELNSFDYWGQGTLVTVSS VL: EIVLTQSPGTLSLSPGERATLSCRASQSVSSSYLGWYQQKLGQAPRLLIYGASSRATGIPDRFSGSGSGTDFTLTISRLEPEDFAVYYCQQYGSTPFTFGPGTKVDIK	–	–	< 0.05 µg/mL
516.C08 (antibody, V domains shown) VH: QITLKESGPTLVKPTQTLTLTCTFSGFSLSTSEVGVGWIRQPPGKALEWLALIYWDDDKRYSPSLKSRLTITKDTSKNQVVLTMTNMDPVDTATYYCAHIKQDCSSTSCYPVTFDYWGQGTLVTVSS VL: DIVMTQSPDSLAVSLGERATINCKSSQSVLDRSNNKKYLAWYQQKSGQPPKLLIYWASTRESGVPDRFSGSGSGTDFTLTISSLQAEDVAVYYCQQYYSTPWTFGQGTKVEIK	0.075 µg/mL	0.03 µg/mL	–
